Anti-infective test results gathered from many reports (values: NIAID ChemDB through PubChem).

Common to all: host cell toxicity; cells: HFF; measure: CC50

CCn: concentration that lowers growth or viability of the cells by n%.

structure,result
NNc1nnnc2c1ncn2[C@@H]1O[C@H](CO)[C@@H](O)[C@H]1O,70 µM
CC(N)c1cn([C@H]2C[C@H](O)[C@@H](CO)O2)c(=O)[nH]c1=O,>175 µM
O=c1[nH]c(=O)n(COCCO)nc1Cc1ccc(O)cc1,>100 µM
Nc1nc(NC2CC2)c2ncn(C=C3CC3CO)c2n1,327 µM
Clc1ccc(Nc2ncnc3ccccc23)cc1Cl,3 µM
C#CCNc1nc(N)nc2c1ncn2/C=C1/C[C@@H]1CO,>370 µM
COC(=O)C(Cc1c[nH]c2ccccc12)NP(=O)(O)OCC1C/C1=C/n1cnc2c(N)ncnc21,>184 µM
CC(=O)Nc1n[nH]c(=O)c2c1ncn2[C@@H]1O[C@H](CO)[C@@H](O)[C@H]1O,>100 µM
COC(C)c1cn([C@H]2C[C@H](O)[C@@H](CO)O2)c(=O)[nH]c1=O,115 µM
OC[C@H]1O[C@@H](n2c(Br)nc3cc(Cl)c(Cl)cc32)[C@H](O)[C@@H]1O,184 µM
Cc1ccc(Cc2nn(COC(CO)CO)c(=O)[nH]c2=O)cc1,>100 µM
Nc1nc2c(ncn2C[C@@H]2CC[C@@H](P(=O)(O)O)O2)c(=O)[nH]1,10 µg/mL
O=c1[nH]c(=O)n(COC(CO)CO)nc1Cc1ccc(Cl)cc1,>100 µM
CCCCCCCCCCCCCCCCOP(=O)(O)CO[C@H](CO)Cn1ccc(N)nc1=O,>157 µM
CC(=O)N[C@H]1C[C@@H](n2cnc3c(N)ncnc32)[C@H](O)[C@@H]1O,>100 µg/mL
COC(=O)C(C)NP(=O)(OC[C@@H]1C/C1=C/n1cc(N)c(=O)[nH]c1=O)Oc1ccccc1,>300 µM
CCCSc1nc(N)nc2c1ncn2/C=C1/C[C@@H]1CO,>343 µM
CCCCCCCCCCCCCCCCCOC[C@H](COP1(=O)CO[C@@H](Cn2ccc(N)nc2=O)CO1)OCc1ccccc1,77 µM
[N-]=[N+]=NC(CBr)c1cn([C@H]2C[C@H](O)[C@@H](CO)O2)c(=O)[nH]c1=O,>130 µM
CCCCCCCC/C=C\CCCCCCCOCCCOP(=O)(O)CO[C@H](CO)Cn1ccc(N)nc1=O,87 µM
Nc1ccn(C[C@@H](CO)OCP(=O)(O)O)c(=O)n1,>317 µM
Nc1ncnc2c1ncn2[C@H]1C[C@]12C[C@H]2CO,100 µM
O=[N+]([O-])c1ccc(CSc2nnnc3c2ncn3[C@@H]2O[C@H](CO)[C@@H](O)[C@H]2O)cc1,>100 µM
CCCCCCCCCCCCCCCCOP1(=O)CO[C@@H](Cn2ccc(N)nc2=O)CO1,83 µM
CCO[C@@H]1[C@@H](OCC)[C@H](Cc2ccccc2)O[C@@H]2CO[C@@H](c3ccc(Cl)cc3)O[C@@H]12,50 µg/mL
Cc1ccc2ncnc(Nc3ccc(Cl)c(Cl)c3)c2c1,2.5 µM
O=c1[nH]c(=O)n(COC(CO)CO)nc1Cc1ccccc1,>100 µM
Nc1nc2ncn(/C=C3\C(F)C3(CO)CO)c2c(=O)[nH]1,260 µM
COC(=O)C(C)NP(=O)(OC[C@@H]1C/C1=C/n1cc(C)c(=O)[nH]c1=O)Oc1ccccc1,>300 µM
C=CCOc1nc(N)nc2c1ncn2/C=C1/C[C@@H]1CO,>366 µM
Nc1nc(N)c2ncn(C34CCC(O)C3(CO)C4)c2n1,>20 µg/mL
OC[C@H]1O[C@@H](n2cnc3cnnnc32)[C@H](O)[C@@H]1O,>100 µM
Nc1nc(NCC2CC2)c2ncn(/C=C3/C[C@@H]3CO)c2n1,>349 µM
O=C(NCc1ccc(Cl)cc1)c1c[nH]c2c(F)cccc2c1=O,>100 µM
Nc1nc2c(ncn2C=C2CC2CO)c(=O)[nH]1,>429 µM
CCCCCOc1nc(N)nc2c1ncn2/C=C1/C[C@@H]1CO,178 µM
O=c1[nH]c(=O)n([C@H]2C[C@H](O)[C@@]3(CO)CC23)cc1Br,>200 µM
Nc1nc(N)c2ncn(C=C3CC3CO)c2n1,266 µM
CCCCCSc1nc(N)nc2c1ncn2/C=C1/C[C@@H]1CO,>313 µM
Nc1ccn([C@@]23C[C@H](O)[C@@H](CO)[C@@H]2C3)c(=O)n1,>100 µg/mL
O[C@@H]1[C@H](O)[C@H](O)CO[C@H]1n1c(Br)nc2cc(Cl)c(Cl)cc21,117 µM
Nc1nc(NC2CCCCC2)c2ncn(/C=C3/C[C@@H]3CO)c2n1,>318 µM
O=c1[nH]c(=O)n(COCCO)nc1Cc1ccc(Cl)cc1,>100 µM
COC(=O)C(C)NP(=O)(OC[C@@H]1C/C1=C\n1cc(C)c(=O)[nH]c1=O)Oc1ccccc1,>100 µM
COc1nc(N)nc2c1ncn2/C=C1/C[C@@H]1CO,>404 µM
NC(=S)c1cn(Cc2ccccc2)c2ncnc(N)c12,>32 µM
N=c1c2ncn(Cc3c(F)cccc3Cl)c2ncn1O,0.1 µg/mL
N#Cc1c[nH]c2ncnc(N)c12,10 µM
CCCCCCCC/C=C\CCCCCCCCOCCOP(=O)(O)CO[C@H](CO)Cn1ccc(N)nc1=O,56 µM

The first 3 rows once more:

structure | result
NNc1nnnc2c1ncn2[C@@H]1O[C@H](CO)[C@@H](O)[C@H]1O | 70 µM
CC(N)c1cn([C@H]2C[C@H](O)[C@@H](CO)O2)c(=O)[nH]c1=O | >175 µM
O=c1[nH]c(=O)n(COCCO)nc1Cc1ccc(O)cc1 | >100 µM

Lines come from different laboratories, so protocols vary.